Results of unrelated studies side by side (data: NIAID ChemDB).

Common to all: tests in culture; organism: Herpes simplex virus 1

An empty or dashed field is not shown.

| structure | measure | read by | cell line | strain or isolate | result |
|---|---|---|---|---|---|
| Cn1cc(C(=O)NCc2ccc(Cl)cc2)c(=O)c2cc(CN3CCOCC3)ccc21 | EC50 | plaque count | HFF | L6183347 ACV resistant | 9.1 µM |
| O=c1[nH]c(=O)n([C@@H]2S[C@H](CO)[C@@H](O)[C@@H]2F)cc1F | EC50 | cytopathic effect |  | VR | >27 µg/mL |
| Nc1ncnc2c1ncn2[C@@H]1O[C@H](CO)[C@@H](O)[C@@H]1O | EC50 | cytopathic effect | HEP-2 | KOS | 100 µg/mL |
| O=C(CI)NCc1cn([C@H]2C[C@H](O)[C@@H](CO)O2)c(=O)[nH]c1=O | EC50 | cytopathic effect | HSF | KOS | >200 µg/mL |
| Nc1nc2c(ncn2[C@@H]2C=C[C@H](CO)[C@@H](O)C2)c(=O)[nH]1 | EC50 | cytopathic effect | E6SM | McIntyre | 0.004 µg/mL |
| O=c1c2ncn(COCCO)c2nc2[nH]c(-c3ccccc3)c(-c3ccc(C(c4ccccc4)c4ccccc4)cc3)n12 | EC50 | cytopathic effect |  | F | >16 µg/mL |
| CCCCCCCC/C=C/CCCCCCCC(=O)O | EC50 | cytopathic effect | HEL | B2006 (TK-) | >100 µM |
| O=C1c2ccccc2C(=O)N1CCCC1=NNC(=Nc2ccccc2)SC1 | EC50 | cytopathic effect | VERO | VR733 | 25.68 µg/mL |
| O=c1[nH]c(=O)n([C@H]2C[C@H](O)[C@@H](CO)O2)cc1/C=C/Br | EC50 | cytopathic effect | PRK | KOS | 0.02 µg/mL |
| O=c1c2ncn(COC(CO)CO)c2nc2[nH]c(-c3ccc(F)cc3)cn12 | EC50 | cytopathic effect | HEL | KOS | 0.64 µg/mL |
| COc1ccc(-c2cn3c(=O)c4ncn(COC(CO)CO)c4nc3[nH]2)cc1 | EC50 | cytopathic effect |  | KOS | 0.005 µg/mL |
| CC(CC(=N)N)NC(=O)c1cc(NC(=O)c2cc(NC(=O)c3cc(NC=O)cn3C)cn2C)cn1C | EC50 | plaque count | BSC-1 |  | >200 µg/mL |
| OC[C@H]1O[C@@H](c2cc(C#CI)c(F)cc2F)C[C@@H]1O | EC50 | cytopathic effect | E6SM | VMW1837 (TK-) | >400 µg/mL |
| Nc1nc(=O)n([C@H]2C[C@H](O)[C@@H](CO)O2)cc1/C=C\Cl | EC50 | cytopathic effect | PRK | McIntyre | 2 µg/mL |
| O=c1[nH]c(=O)n([C@H]2C[C@H](O)[C@@H](CO)O2)cc1I | MIC |  |  | FORD | 1.1 µg/mL |
| Nc1ncnc2c1ncn2C[C@H](O)CO | EC50 | cytopathic effect | PRK | B2006 (TK-) | >400 µg/mL |
| COc1cc(F)c([C@H]2C[C@H](O)[C@@H](CO)O2)cc1[N+](=O)[O-] | EC50 | cytopathic effect | E6SM | KOS | >400 µg/mL |
| Nc1nc2c(ncn2[C@@H]2S[C@H](CO)[C@@H](O)[C@@H]2F)c(=O)[nH]1 | EC50 | cytopathic effect |  | VR | 0.0041 µg/mL |
| OC[C@H]1O[C@H](c2ccc(F)cc2F)C[C@@H]1O | EC50 | cytopathic effect | E6SM | KOS/ACV-R | >400 µg/mL |
| O=c1[nH]c(=O)n([C@@H]2O[C@H](CO)[C@@H](O)[C@@H]2O)cc1/C=C/Br | EC50 | cytopathic effect | T-21 | KOS | 0.01 µg/mL |
| Nc1nc2c(ncn2C/C=C\CO)c(=O)[nH]1 | EC50 | plaque count | VERO | C42 (acyclovir-resistant) | 150 µM |
| O=c1[nH]c(=O)n([C@H]2C[C@H](O)[C@@H](CO)O2)cc1I | EC50 | cytopathic effect | BSC-1 | KOS | 0.4 µg/mL |
| Nc1ccn(C[C@@H](CO)OCP(=O)(O)O)c(=O)n1 | EC50 | plaque count | MRC-5 | BW-R (TK-) | 1.1 µM |
| [N-]=[N+]=N[C@@H]1[C@@H](OP(=O)(O)OC[C@H]2O[C@@H](n3cnc4c(N)ncnc43)[C@H](OP(=O)(O)OCCOCn3cnc4c(=O)[nH]c(N)nc43)[C@H]2N=[N+]=[N-])[C@H](n2cnc3c(N)ncnc32)O[C@@H]1CO | EC50 | cytopathic effect | PRK | VMW1837 (TK-) | 70 µg/mL |
| Nc1ccn(C[C@@H](CO)OCP(=O)(O)O)c(=O)n1 | EC50 | cytopathic effect | HEL | HU-10 | 4.65 µM |
| Nc1nc2c(ncn2COCCO)c(=O)[nH]1 | EC50 | cytopathic effect | Human embryonic lung fibroblasts | TK- KOS ACVr | 10 µM |
| O=c1c2ncn(COCCO)c2nc2[nH]c(-c3ccc(F)cc3)cn12 | EC50 | cytopathic effect | HEL | KOS | >16 µg/mL |
| Cn1cc(NC(=O)c2cc(NC(=O)c3cc([N+](=O)[O-])cn3C)cn2C)cc1C(=O)NCC(=N)N | EC50 | plaque count | BSC-1 |  | <50 µg/mL |
| O=C1c2ccccc2C(=O)N1C(Cc1ccccc1)C1=NNC(=Nc2ccccc2)SC1 | EC50 | cytopathic effect | VERO | VR733 | 12.34 µg/mL |
| Cc1cc([C@H]2C[C@H](O)[C@@H](CO)O2)c(F)cc1F | EC50 | cytopathic effect | E6SM | McIntyre | >400 µg/mL |
| O=C(NCc1ccc(Cl)cc1)c1cn2c3c(cc(CN4CCOCC4)cc3c1=O)OC(c1cccnc1)C2 | EC50 | plaque count | HFF | SC16-S1 (acyclovir-resistant) | 5.9 µM |
| O=c1[nH]c(=O)n([C@H]2C[C@H](O)[C@@H](CO)O2)cc1I | EC50 | cytopathic effect | Primary rabbit kidney cells | KOS | 0.2 µg/mL |
| Nc1nc2c(ncn2CC(CO)CCO)c(=O)[nH]1 | EC50 | plaque count | VERO | SC16 | 1.4 µM |
| Nc1nc(=O)n([C@H]2C[C@H](O)[C@@H](CO)O2)cc1/C=C/Br | EC50 | plaque count | HEP-2 |  | 1.2 µM |
| O=c1[nH]c(=O)n([C@H]2C[C@H](O)[C@@H](CO)O2)cc1/C=C/Br | EC50 | cytopathic effect | Human embryonic lung fibroblasts | TK- KOS ACVr | 50 µM |
| CC(C1=NN=C(N(C(=O)c2ccccc2)c2ccccc2)SC1)N1C(=O)c2ccccc2C1=O | EC50 | cytopathic effect | VERO | VR733 | 111 µg/mL |
| Nc1nc2c(ncn2COCCO)c(=O)[nH]1 | EC50 | cytopathic effect | HFF | H31191 (acyclovir-susceptible) | 1 µg/mL |
| CC(CC#N)NC(=O)c1cc(NC(=O)c2cc(NC(=O)c3cc(NC=O)cn3C)cn2C)cn1C | EC50 | plaque count | BSC-1 |  | <200 µg/mL |
| CSCc1cn([C@H]2C[C@H](O)[C@@H](CO)O2)c(=O)[nH]c1=O | EC50 | cytopathic effect | PRK | McIntyre | 4 µg/mL |
| Cc1c(-c2ccc(F)cc2)[nH]c2nc3c(ncn3COCCO)c(=O)n12 | EC50 | cytopathic effect | HEL | F | 0.384 µg/mL |
| O=C(NCc1ccc(Cl)cc1)c1c[nH]c2ccc(CCCO)cc2c1=O | EC50 | plaque count |  | DJL | 18 µM |
| Cc1cc([C@H]2C[C@H](O)[C@@H](CO)O2)c(F)cc1Cl | EC50 | cytopathic effect | E6SM | VMW 1837 | >400 µg/mL |
| [N-]=[N+]=NCc1cn([C@H]2C[C@H](O)[C@@H](CO)O2)c(=O)[nH]c1=O | EC50 | cytopathic effect | PRK | McIntyre | 1 µg/mL |
| CCCc1cn([C@H]2C[C@H](O)[C@@H](CO)O2)c(=O)[nH]c1=O | EC50 | cytopathic effect | Primary rabbit kidney cells | LYONS | 10 µg/mL |
| Cc1cc([C@@H]2C[C@H](O)[C@@H](CO)O2)c(Cl)cc1F | EC50 | cytopathic effect | E6SM | F | >400 µg/mL |
| Cn1cc(C(=O)NCc2ccc(Cl)cc2)c(=O)c2cc(CN3CCOCC3)ccc21 | EC50 | plaque count | VERO | KOS-M1 | >20 µM |
| Nc1ncnc2c1ncn2[C@@H]1O[C@H](CO)[C@@H](O)[C@H]1OP(=O)(O)OC[C@H]1O[C@@H](n2cnc3c(N)ncnc32)[C@H](OP(=O)(O)OC[C@H]2O[C@@H](n3cc(F)c(=O)[nH]c3=O)C[C@@H]2O)[C@@H]1O | EC50 | cytopathic effect | PRK | KOS | 70 µg/mL |
| Nc1ccn(CC(CO)OCP(=O)(O)O)c(=O)n1 | EC50 | cytopathic effect | Human embryonic lung fibroblasts | KOS | 2 µM |
| C=CCN=C1NN=C(C(C)N2C(=O)c3ccccc3C2=O)CS1 | EC50 | cytopathic effect | VERO | VR733 | 77.04 µg/mL |
| O=c1[nH]c(=O)n([C@@H]2S[C@H](CO)[C@@H](O)[C@@H]2F)cc1I | EC50 | cytopathic effect |  | VR | 0.037 µg/mL |
| O=Cc1cn([C@H]2C[C@H](O)[C@@H](CO)O2)c(=O)[nH]c1=O | EC50 | cytopathic effect | PRK | VEW257 | 1 µg/mL |
| O=c1[nH]c(=O)n([C@@H]2S[C@H](CO)[C@@H](O)[C@@H]2F)cc1/C=C/Br | EC50 | cytopathic effect |  | VR | 0.32 µg/mL |
| OC[C@H]1O[C@@H](c2cc(/C=C/Br)c(F)cc2F)C[C@@H]1O | EC50 | cytopathic effect | E6SM | KOS ACV-R (TK-) | >400 µg/mL |
| Cn1cc(C(=O)NCc2ccc(Cl)cc2)c(=O)c2cc(/C=C\CO)cc(F)c21 | EC50 | plaque count | VERO |  | 2 µM |
| [N-]=[N+]=NC(CBr)c1cc([C@H]2C[C@H](O)[C@@H](CO)O2)c(F)cc1F | EC50 | cytopathic effect | E6SM | KOS ACV-R (TK-) | >400 µg/mL |
| Cn1cc(NC(=O)c2cc(NC(=O)c3cc([N+](=O)[O-])cn3C)cn2C)cc1C(=O)Nc1cccc(C(=N)N)c1 | EC50 | plaque count | BSC-1 |  | <200 µg/mL |
| Nc1nc2c(ncn2COC(CO)CO)c(=O)[nH]1 | EC50 | cytopathic effect | Human embryonic lung fibroblasts | TK- KOS ACVr | 4 µM |
| O=c1c2ncn(COCCO)c2nc2[nH]c(-c3ccc(C(F)(F)F)cc3)cn12 | EC50 | cytopathic effect | HEL | KOS | 48 µg/mL |
| CC(=O)N(C1=NN=C(C(C)N2C(=O)c3ccccc3C2=O)CS1)c1ccccc1 | EC50 | cytopathic effect | VERO | VR733 | >37.04 µg/mL |
| Cc1cc([C@H]2C[C@H](O)[C@@H](CO)O2)c(Cl)cc1F | EC50 | cytopathic effect | E6SM | KOS | >400 µg/mL |
| CCc1c(CN)c(CC)c(CN)c(CC)c1CN | EC50 | cytopathic effect | Human embryonic lung fibroblasts | KOS | >100 µM |
| Cc1nc(N(C)C(=O)Cc2ccc(-c3ccccn3)cc2)sc1S(N)(=O)=O | EC50 | plaque count | VERO | KOS | 0.04 µM |
| O=c1c2ncn(COCCO)c2[nH]c2ncc(C(c3ccccc3)(c3ccccc3)c3ccccc3)n12 | EC50 | cytopathic effect |  | F | >16 µg/mL |
| O=c1[nH]c(=O)n([C@H]2C[C@H](O)[C@@H](CO)O2)cc1/C=C/Br | EC50 | cytopathic effect | E6SM | KOS TK- acyclovir-resistant | >80 µg/mL |
| Nc1nc2c(ncn2CCCCO)c(=O)[nH]1 | EC50 | plaque count | VERO | C915 TK- | 350 µM |
| CC(=O)OCCOCn1cnc2c(=O)n3cc(-c4ccc5ccccc5c4)[nH]c3nc21 | EC50 | cytopathic effect |  | F | >16 µg/mL |
| O=c1[nH]c(=O)n([C@H]2C[C@H](O)[C@@H](CO)O2)cc1/C=C/Br | EC50 | cytopathic effect | PRK | B2006 (TK-) | >200 µg/mL |
| Cc1ccc(N=C2NN=C(C(C)N3C(=O)c4ccccc4C3=O)CS2)cc1 | EC50 | cytopathic effect | VERO | VR733 | >111 µg/mL |
| COc1nc(=O)n([C@H]2C[C@H](O)[C@@H](CO)O2)cc1/C=C/Cl | EC50 | cytopathic effect | PRK | B2006 (TK-) | >200 µg/mL |
| Cc1cc([C@@H]2C[C@H](O)[C@@H](CO)O2)c(F)cc1F | EC50 | cytopathic effect | E6SM | McIntyre | >400 µg/mL |
| Nc1nc2c(ncn2COC(CO)CO)c(=O)[nH]1 | EC50 | cytopathic effect | HEL | KOS | 0.007 µM |
| Cc1cn([C@@]2(C=O)C[C@H](O)[C@@H](CO)S2)c(=O)[nH]c1=O | EC50 | cytopathic effect | HEL |  | 20 µg/mL |
| Nc1ccn([C@@H]2O[C@H](CO)[C@@H](O)[C@@H]2O)c(=O)n1 | EC50 | plaque count | VERO | KOS-M1 | 0.2 µM |
| O=C(O)P(=O)(O)O | EC50 | plaque count | MEF | E-377 | 8.4 µg/mL |
| O=c1c2ncn(COC(CO)CO)c2[nH]c2nccn12 | EC50 | cytopathic effect |  | McIntyre | 0.7 µg/mL |
| CCc1cn([C@H]2C[C@H](O)[C@@H](CO)O2)c(=O)[nH]c1=O | EC50 | cytopathic effect | PRK | B2006 (TK-) | >400 µg/mL |
| Nc1nc2c(ncn2COCCO)c(=O)[nH]1 | EC50 | plaque count | HEL | C42 | 0.1 µM |
| CCCCCCCCCCCCCCCCOCCCOP(=O)(O)CO[C@H](CO)Cn1cnc2c(N)ncnc21 | EC50 | hybridisation | MRC-5 |  | <0.0004 µM |

6 of the rows above, restated:

structure	measure	read by	cell line	strain or isolate	result
CC(=O)OCCOCn1cnc2c(=O)n3cc(-c4ccc5ccccc5c4)[nH]c3nc21	EC50	cytopathic effect		F	>16 µg/mL
Nc1nc2c(ncn2[C@@H]2C=C[C@H](CO)[C@@H](O)C2)c(=O)[nH]1	EC50	cytopathic effect	E6SM	McIntyre	0.004 µg/mL
CCc1c(CN)c(CC)c(CN)c(CC)c1CN	EC50	cytopathic effect	Human embryonic lung fibroblasts	KOS	>100 µM
O=c1[nH]c(=O)n([C@H]2C[C@H](O)[C@@H](CO)O2)cc1/C=C/Br	EC50	cytopathic effect	PRK	KOS	0.02 µg/mL
CC(C1=NN=C(N(C(=O)c2ccccc2)c2ccccc2)SC1)N1C(=O)c2ccccc2C1=O	EC50	cytopathic effect	VERO	VR733	111 µg/mL
Nc1nc(=O)n([C@H]2C[C@H](O)[C@@H](CO)O2)cc1/C=C\Cl	EC50	cytopathic effect	PRK	McIntyre	2 µg/mL

ECn: concentration that inhibits the pathogen or its effect by n%. Rows are shuffled and stem from different studies.